This is a selection; strong and weak results do not stand in their true shares. Calls of active or inactive are those of the source. Rule as the data show it: active = inhibition above about 21% (passing the limit was not always enough); inactive = the rest.
Target: 1,4-dihydroxy-2-naphthoyl-CoA synthase (Mycobacterium tuberculosis (strain ATCC 25618 / H37Rv)) (UniProt P9WNP5)
Assay: M. tuberculosis MenB inhibitors, primary screen, biochemical, absorbance (AID 540299)
Conditions: MenB enzyme assay, absorbance read-out; hits give high values; concentration not given here

Protein sequences, listed by entry. Tags and fused reporters are not part of them.
UniProt P9WNP5, whole entry: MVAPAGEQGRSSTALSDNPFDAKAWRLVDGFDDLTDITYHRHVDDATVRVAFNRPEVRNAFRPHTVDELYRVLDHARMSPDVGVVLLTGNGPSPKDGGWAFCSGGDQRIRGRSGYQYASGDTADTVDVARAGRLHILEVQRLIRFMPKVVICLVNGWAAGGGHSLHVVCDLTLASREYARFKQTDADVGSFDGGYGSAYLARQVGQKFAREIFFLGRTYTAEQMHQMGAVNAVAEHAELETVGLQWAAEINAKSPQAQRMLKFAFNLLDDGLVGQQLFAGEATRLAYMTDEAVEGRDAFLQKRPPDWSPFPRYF

SMILES | inhibition
NC(=O)Nc1ccc([As](=O)(O)O)cc1 | inactive: 4.47%
O=P1(Nc2nc3ccc(Cl)cc3s2)COc2ccccc2OC1 | inactive: -13.1%
CCOP1(=S)c2c(C)nn(CCC#N)c2N=C(c2ccc(F)cc2)N1C (centres undefined) | inactive: -2.96%
NC(=O)COC(=O)C1(O)c2ccccc2-c2ccccc21 | inactive: -20.1%
O=C(OC1CN2CCC1CC2)c1ccc(Cl)cc1 (centres undefined) | inactive: -6.85%
Cc1cccc(OCC(=O)OC2CN3CCC2CC3)c1 (centres undefined) | inactive: -6.14%
COc1cc(-n2cnnn2)ccc1-n1cnnn1 | inactive: -18.7%
O=P1(Nc2ccccn2)COc2ccccc2OC1 | inactive: -13.2%
Nc1nonc1-c1no[n+]([O-])c1-c1nonc1N | inactive: -37.1%
Cc1cc(C)cc(OP(C)(=O)Nc2ccc(OC(C)C)cc2)c1 (centres undefined) | inactive: -6.14%
CCSP(=O)(c1ccccc1)c1ccccc1 | inactive: -22.2%
CC1(C)COP(=S)(N(C2=NCCC2)c2ccccc2)OC1 | inactive: -20.9%
Cc1ccc(C(=O)OC2CN3CCC2CC3)cc1 (centres undefined) | inactive: -7.58%
Cc1nn(-c2ccccc2)c2c1P(=O)(N1CCOCC1)N(C)C(c1ccccc1)=N2 (centres undefined) | inactive: -2.97%
Cc1nn(CCC#N)c2c1P(=O)(Nc1ccccc1Cl)N(C)C(c1ccc(F)cc1)=N2 (centres undefined) | inactive: -4.79%
CP(=O)(N1CCOCC1)N1CCOCC1 | inactive: -4.83%
CP(=O)(Nc1ccc(Cl)cc1)Oc1ccccc1 (centres undefined) | inactive: -3.49%
COc1ccccc1OP(C)(=O)Nc1ccccc1 (centres undefined) | inactive: 14.4%
CCN1C(=O)N(c2ccccc2)P(=S)(OC)c2cc3c(cc21)OCCO3 (centres undefined) | inactive: 3.31%
O=C(O)CCC(=O)N=S(c1ccccc1)c1ccccc1.O=[N+]([O-])c1cc([N+](=O)[O-])c(O)c([N+](=O)[O-])c1 | inactive: -70.7%
Cc1cccc(NP(C)(=O)Oc2ccccc2)c1 (centres undefined) | inactive: -1.8%
CCOC(=O)c1ccc(NP(C)(=O)Oc2ccc(OC)cc2)cc1 (centres undefined) | inactive: 2.36%
CCn1cccc/c1=N\P1(=S)OCCO1 | inactive: -12.8%
COP1(=S)c2c(C)nn(-c3ccccc3)c2N=C(c2ccccc2)N1C1CC1 (centres undefined) | inactive: -15.8%
CP(=O)(NC(=O)Nc1ccccc1)Oc1ccccc1 (centres undefined) | inactive: -25.2%
O=P1(Nc2nccs2)CC=CC1 | inactive: -12.7%
CN(C)P1(=O)Nc2ccccc2S1 (centres undefined) | inactive: -35.6%

SMILES | inhibition
O=C(OC1CN2CCC1CC2)C12CC3CC(CC(C3)C1)C2 (centres undefined) | inactive: -8.94%
Cc1cc(C)cc(OP(C)(=O)NCc2ccccc2)c1 (centres undefined) | inactive: -62.6%
Nc1nonc1OCCOc1nonc1N | inactive: -24.5%
COP1(=S)N=C2c3ccccc3CN2c2cc(N(C)C)ccc21 (centres undefined) | inactive: -16.7%
CC1=Nc2ccc(C(F)(F)F)cc2C1(C)C | inactive: -114%
O=C(COC(=O)C(O)(c1ccccc1)c1ccccc1)N1CCCCC1 | inactive: 2.66%
CN(C(=O)Cc1ccc(Cl)c(Cl)c1)[C@H]1CCCC[C@@H]1N1CCCC1 | inactive: -2.2%
CCOP(=Nc1nc2ccccc2n2nnnc12)(OCC)OCC | inactive: -3.14%
CP(=O)(Nc1ccccn1)Oc1ccccc1 (centres undefined) | inactive: 1.57%
CP(=O)(Nc1ccc(Cl)cc1)Oc1ccc(F)cc1 (centres undefined) | inactive: -2.75%
CCc1ccc(OP(C)(=O)Nc2cccnc2)cc1 (centres undefined) | inactive: 0.775%
CCc1nc2c(n1)c1c(non1O)c1c2no[n+]1[O-] | inactive: -2.27%
OCCSCCO | inactive: 4.19%
CC(=O)OC1(C#N)CN2CCC1CC2 (centres undefined) | inactive: -34.9%
Nc1nonc1OCc1nonc1COc1nonc1N | inactive: 4.63%
Cc1ccccc1NP(C)(=O)Nc1ccccc1C | inactive: -5.92%
C/C1=C2N=C(/C=C3N=C(/C(C)=C4\[N-][C@@](C)([C@@H]5N=C1[C@](C)(CCC(=O)NC[C@@H](C)OP(=O)([O-])O[C@H]1[C@@H](O)[C@@H](n6cnc7cc(C)c(C)cc76)O[C@@H]1CO)[C@H]5CC(N)=O)[C@@](C)(CC(N)=O)[C@@H]4CCC(N)=O)[C@@](C)(CC(N)=O)[C@@H]\3CCC(N)=O)C(C)(C)[C@@H]/2CCC(N)=O.[C-]#N.[Co+3] | inactive: 4.88%
O=P(Nc1nccs1)(c1ccccc1)c1ccccc1 | inactive: 6.33%
CC(=O)OC1CN2CCC1C(c1ccccc1)C2 (centres undefined) | inactive: 4.57%
O=C(OCCN1CCN(CCOCc2ccccc2)CC1)C(O)(c1ccccc1)c1ccccc1 | inactive: 4.57%
O=P1(Nc2nc3ccc(Cl)cc3s2)COc2ccccc2O1 (centres undefined) | inactive: 4.79%
Cc1cc(NC2=NC3C(C(=O)N(C)C(=O)N3C)N2C)n(-c2ccccc2)n1 (centres undefined) | inactive: -13.4%
O=P1(Nc2nncs2)C=C(c2ccccc2)SC(c2ccccc2)=C1 | inactive: -33.4%
COc1cc2c(cc1NP(C)(=O)Oc1ccccc1)oc1ccccc12 (centres undefined) | inactive: -29.1%
COC(=O)c1cc2c(s1)N=C(c1ccccc1)N(C)P2(=O)N1CCOCC1 (centres undefined) | inactive: -14.1%
CC1CCC(C(C)C)C(OP(=O)(Nc2nccs2)c2ccccc2)C1 (centres undefined) | inactive: -104%
O=C(OCC1CN(Cc2ccccc2)CCO1)C(O)(c1ccccc1)c1ccccc1 (centres undefined) | inactive: -29.5%
